Consider 1 compound from the supplement of paper PMC12613149.

Series [1] in a line: collision cross section (TIMS, N2 drift gas) of the primary ion; higher = larger gas-phase ion size. The conditions noted are these: ionization mode: ESI+; ion species: [M+H]+. The method, then: (§1)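 Reference mixture of environmental contaminants analysed by RP-LC (BEH C18, 50 °C; ESI+ with water/MeOH plus formic acid and ammonium formate, ESI- with ammonium bicarbonate) coupled to a timsTOF Pro 2 with trapped ion mobility in nitrogen (ramp/accumulation 100 ms). CCS was calibrated with Agilent tune mix (CCS compendium) and averaged over five injections at 0.5-500 ng/mL. The table reports the lowest-CCS (putative monomer) peak; retention times are on the same gradient.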

Series [2] in a line: reversed-phase LC retention time (C18, 15 min MeOH gradient); higher = more hydrophobic / later elution. The conditions noted are these: ionization mode: ESI+; ion species: [M+H]+. As for the experimental part: as §1

Each structure is given as a SMILES string.

With `CC(C)(C)c1ccc(OP(=O)(Oc2ccc(C(C)(C)C)cc2C(C)(C)C)Oc2ccc(C(C)(C)C)cc2C(C)(C)C)c(C(C)(C)C)c1` [Tris(2,4-di-tert-butylphenyl)phosphate], the collision cross section in series [1] is listed as 277.43 Å². The “reversed-phase LC retention time” value in series [2] is 21 min.
